Among the data in publication PMC8575991, “Development of molecular clamp stabilized hemagglutinin vaccines for Influenza A viruses” (2021) are stoichiometry N values, retold here.

In this assay the target is H3 foldon (HA ectodomain with the foldon trimerisation domain) (Influenza A virus A/Switzerland/9715293/2013 (H3N2) | bacteriophage T4). Put plainly: SEC.

“H3 foldon (HA ectodomain with the foldon trimerisation domain)” came in with a stoichiometry N of 3.

For orientation: stoichiometry N means a count of units in the complex or per binding partner.
